Measured values from several laboratories, pooled; numbers as filed in NIAID ChemDB.

Common to all: growth or infection tests; agent: Mycobacterium tuberculosis

Inhibition is in % at the dose shown (toxicity tests: loss of growth or viability).

smiles	tested at	strain	cells	read by	read-out	result
Nc1ccc(S(=O)(=O)Nc2cnc3c(Cl)cccc3n2)cc1	12.5 µg/mL	H37Rv		BACTEC	inhibition	83%
CCC(C)c1cc(C)cc(OC(=O)c2ccc(N)cc2O)c1		H37Rv (streptomycin-resistant)			MIC	5 µg/mL
CC(C)(C)c1cc(C(C)(C)C)c2oc(-c3cccc(Br)c3)nc2c1	6.25 µg/mL	H37Rv		BACTEC	inhibition	<90%
Cc1ccc(NC(=S)NC(=O)/C=C/c2ccccc2)cc1Cl		H37Rv		BACTEC	MIC bound	≤12.5 µg/mL
Cc1cn2c(C(=O)NCc3ccc(N4CCCN(c5ccc(S(F)(F)(F)(F)F)cc5)CC4)cc3)c(C)nc2s1		H37Rv		resazurin	MIC90	<2 µM
COc1ccc(-c2coc3cc(O)cc(O)c3c2=O)cc1		H37Rv		BACTEC	MIC	≥12.8 µg/mL
CCCn1c(O)c(N=NC(=O)c2ccncc2)c2ccccc21		Human resistant isolate			MIC	3.1 µg/mL
Cc1c(N2C[C@@H](N)C3(CC3)C2)c(F)c(N)c2c(=O)c(C(=O)O)cn(C3CC3)c12		18 strains (levofloxacin-resistant)			MIC50	6.25 µg/mL
CC1=C2N3C[C@@H](n4c(=O)n(C)c(=O)n43)[C@@]23CC[C@@H]1n1c(=O)n(C)c(=O)n13	6.25 µg/mL	H37Rv			inhibition	4%
C[C@]1(COc2ccc(N3CCC(Oc4ccc(OC(F)(F)F)cc4)CC3)cc2)Cn2cc([N+](=O)[O-])nc2O1		H37Rv			MIC	0.012 µg/mL
CCOC(=O)c1ccc(NC(=O)C(CC(=O)Nc2ccc(Cl)cc2)C(C)=O)cc1	30 µg/mL	H37Rv			inhibition	0%
CCO.O=C(NCc1ccccc1)Nc1nc(-c2ccccc2)c(-c2ccccc2)nc1C(=O)NCc1ccccc1	12.5 µg/mL	H37Rv		BACTEC	inhibition	14%
Cc1ccc2nc(C)c(C(=O)NCc3cccc(S(F)(F)(F)(F)F)c3)n2c1		H37Rv		resazurin	MIC90	<2 µM
CCN(CC)CCNc1cc(C)nc2c1ccc1c2ccc2c(NCCN(CC)CC)cc(C)nc21	6.25 µg/mL	H37Rv			inhibition	51%
CCOC(=O)c1ccc(-c2cn(S(=O)(=O)c3ccc(C)cc3)c3ccccc23)nc1C		H37Rv			MIC	25 µg/mL
CCCCCN1C(=O)c2ccnnc2Oc2ccccc21	12.5 µg/mL	H37Rv		BACTEC	inhibition	0%
Cc1ccn2c(C(=O)NCc3ccc(N4CCN(c5ccc(S(F)(F)(F)(F)F)cc5)CC4)c(F)c3)c(C)nc2c1		H37Rv		resazurin	MIC90	<2 µM
CCCCCCCCCCCCN1/C(=C/C=C/c2sc3ccccc3[n+]2CCCCCCCCCCCC)Sc2ccccc21		H37Rv		BACTEC	MIC bound	≤6.25 µg/mL
CC1COc2c(N3CCN(C)CC3)c(F)cc3c(=O)c(C(=O)O)cn1c23		2923-5			MIC	1 µg/mL
CC1(C)SC(=O)N(CCC#CCCc2ccccc2)C1=O	12.5 µg/mL	H37Rv		BACTEC	inhibition	38%
O=C(N=Nc1c(O)[nH]c2ccccc12)c1ccncc1		BOVIN			MIC	2.7 µg/mL
CC(=O)Oc1ccc2c3c4nc5ccccc5nc4cc(OC(C)=O)c3n(C)c2c1		H37Rv		BACTEC	MIC bound	>12.5 µg/mL
O=C1c2cc(Cl)nnc2Oc2ccccc2N1Cc1ccccc1	12.5 µg/mL	H37Rv		BACTEC	inhibition	35%
Clc1cc(Cl)cc(-n2cc(CSC3c4ccccc4-c4ccccc43)nn2)c1		Specimen 192		broth dilution	MIC99	118 µM
CCCCCN1C(=O)c2cc(Cl)nnc2Oc2cc(C)ccc21	12.5 µg/mL	H37Rv		BACTEC	inhibition	69%
CC(C)(C)c1cc(C(C)(C)C)c2oc(-c3ccncc3)nc2c1	6.25 µg/mL	H37Rv		BACTEC	inhibition	100%
COC(=O)C1=CO[C@@H](C)[C@H]2Cn3ccc4c5ccccc5nc-4c3C[C@H]12		H37Rv		BACTEC	MIC bound	>12.5 µg/mL
CC[C@H]1OC(=O)[C@H](C)[C@@H](O[C@H]2C[C@@](C)(OC)[C@@H](O)[C@H](C)O2)[C@H](C)[C@@H](O[C@@H]2O[C@H](C)C[C@H](N(C)C)[C@H]2O)[C@](C)(OC)C[C@@H](C)C(=O)[C@H](C)[C@@H](O)[C@]1(C)O		27 strains (levofloxacin-susceptible)			MIC50	25 µg/mL
C[C@H]1COc2c(N3CCN(C)CC3)c(F)cc3c(=O)c(C(=O)O)cn1c23		CSU28			MIC	0.25 µg/mL
CC(C)=CCC/C(C)=C/COc1ccc(/C=C2\C(=O)N(O)[C@@H](C)C(=O)N2O)cc1		ETA-R			MIC	>12.5 µg/mL
COc1cccc2c1cc1c3c(cc4c(c32)OCO4)C(=O)N1		H37RvRr		resazurin	MIC	25 µg/mL
COc1c(N2CCNC(C)C2)c(F)cc2c(=O)c(C(=O)O)cn(C3CC3)c12		22 strains (rifampin- isoniazid-resistant)			MIC50	0.39 µg/mL
CC(C)(C)c1cc(C(C)(C)C)c2oc(-c3ccc([N+](=O)[O-])cc3)nc2c1	6.25 µg/mL	H37Rv		BACTEC	inhibition	<90%
NCCCN1c2ccccc2Sc2ccccc21		XDR-926		resazurin	MIC	16 µg/mL
CO[C@H]1/C=C/O[C@@]2(C)Oc3c(C)c(O)c4c(=O)c(c5oc6cc(N7CCN(CC(C)C)CC7)cc(=O)c6nc5c4c3=C2O)NC(=O)/C(C)=C\C=C\[C@H](C)[C@H](O)[C@@H](C)[C@@H](O)[C@@H](C)[C@H](OC(C)=O)[C@@H]1C		H37Rv			MBC	0.031 µg/mL
Cc1ccc(-n2cc(CNC3c4ccccc4-c4ccccc43)nn2)cc1		Specimen 192		broth dilution	MIC99	142 µM
CC(C)(C)c1cc(C(C)(C)C)c2oc(-c3cccnc3)nc2c1	6.25 µg/mL	H37Rv		BACTEC	inhibition	<90%
O=S(=O)(Cc1cn(-c2ccc(Br)cc2)nn1)C1c2ccccc2-c2ccccc21		Specimen 192		broth dilution	MIC99	>214 µM
CC(C)(C)c1cc(C(C)(C)C)c2oc(-c3ccccc3Br)nc2c1		H37Rv		BACTEC	MIC	6.25 µg/mL
Cc1ccn2c(C(=O)NCc3ccc(N4CCN(C(=O)OCC(C)C)CC4)c(F)c3)c(C)nc2c1		H37Rv		resazurin	MIC90	2–10 µM
CC1=C(C(=O)Nc2ccccc2Cl)C(c2ccccc2O)C(C(=O)Nc2ccccc2Cl)=C(C)N1		H37Rv			EC50	>2.5 µg/mL
CC(C)(C)c1cc(C(C)(C)C)c2oc(-c3cccc(Cl)c3)nc2c1	6.25 µg/mL	H37Rv		BACTEC	inhibition	<90%
CCOc1ccc(NC(=O)CC(C(C)=O)C(=O)Nc2cccc3ccccc23)cc1	5 µg/mL	H37Rv			inhibition	0%
Cc1ccc(S(=O)(=O)n2cc(-c3ccc4c(n3)CC(C)(C)CC4=O)c3ccccc32)cc1		H37Rv			MIC	25 µg/mL
CC(=O)C(CC(=O)Nc1cccc(Cl)c1)C(=O)Nc1cccc2ccccc12	5 µg/mL	H37Rv			inhibition	0%
Cc1cc(C(C#N)c2ccc(Cl)cc2)c(Cl)cc1NC(=O)c1cc(I)cc(I)c1O	12.5 µg/mL	H37Rv		BACTEC	inhibition	-41%
CC1(C)CC(=O)c2ccc(-c3ccccc3)nc2C1		H37Rv			MIC	>25 µg/mL
COc1ccc2cc([N+](=O)[O-])c3ccc(=O)oc3c2c1		H37RvIr		resazurin	MIC	50 µg/mL
Cc1ccn2c(C(=O)NCc3ccc4c(c3)CCO4)c(C(F)(F)F)nc2c1		H37Rv		resazurin	MIC90	<2 µM
Cc1cc(COC(=O)c2ccc(N)cc2O)ccc1C(C)C		Frankfurt			MIC	0.01 µg/mL
CO[C@H]1/C=C/O[C@@]2(C)Oc3c(C)c(O)c4c(O)c(c(/C=N/N5CCN(C/C=C/c6ccccc6)CC5)c(O)c4c3C2=O)NC(=O)/C(C)=C\C=C\[C@H](C)[C@H](O)[C@@H](C)[C@@H](O)[C@@H](C)[C@H](OC(C)=O)[C@@H]1C		2225 (MDR)			MIC	8 µg/mL
Cc1cn2c(C(=O)NCc3cccc(S(F)(F)(F)(F)F)c3)c(C)nc2s1		H37Rv		resazurin	MIC90	<2 µM
CSc1ccc(C2C(C(=O)Nc3ccccc3)=C(C)NC(C)=C2C(=O)Nc2ccccc2)cc1	2.5 µg/mL	H37Rv			inhibition	69%
CC(C)(C)c1cc(C(C)(C)C)c2oc(-c3ccccn3)nc2c1		H37Rv		BACTEC	MIC	>6.25 µg/mL
Cc1ccn2c(C(=O)NCc3ccc(N4CCN(c5ccc(C(F)(F)F)cn5)CC4)c(F)c3)c(C)nc2c1		H37Rv		resazurin	MIC90	<2 µM
CC1=C(C(=O)Nc2ccc([N+](=O)[O-])cc2)C(c2ccc(Cl)cc2Cl)C(C(=O)Nc2ccc([N+](=O)[O-])cc2)=C(C)N1	2.5 µg/mL	H37Rv			inhibition	96%
CC1(C)S/C(=C\c2ccccc2)c2nc3ccccc3c(=O)n21		H37Rv		resazurin	MIC bound	>6.25 µg/mL
CC(=O)C(CC(=O)Nc1ccccc1)C(=O)Nc1cccc2ccccc12	30 µg/mL	H37Rv			inhibition	0%
NC(=O)c1cnccn1		DHMH6577 niacin-positive			MIC	>2048 µg/mL
CC1=C(C(=O)Nc2ccccc2Cl)C(c2ccccc2Cl)C(C(=O)Nc2ccccc2Cl)=C(C)N1		H37Rv			EC50	>2.5 µg/mL
COc1cc(-n2cc(CS(=O)(=O)C3c4ccccc4-c4ccccc43)nn2)cc(OC)c1OC		Specimen 192		broth dilution	MIC99	52.35 µM
Nc1ccc(O)c2c1C(=O)c1c(O)ccc(N)c1C2=O	12.5 µg/mL	H37Rv		BACTEC	inhibition	-21%
O=C(O)c1cn(C2CC2)c2c(F)c(N3CCSCC3)c(F)cc2c1=O		CSU23			MIC	1 µg/mL
Cc1c(F)c(N2CCNC(C)C2)cc2c1c(=O)c(C(=O)O)cn2C1CC1		82 strains			MIC90	2 µg/mL
CCCCCCCCN1C(=O)c2cc(Cl)nnc2Oc2ccc3ccccc3c21	12.5 µg/mL	H37Rv		BACTEC	inhibition	38%
CC(C)C1=CC2=CC(=O)[C@H]3C(C)(C)CCC[C@]3(C)C2=C(O)C1=O		H37Rv		BACTEC	MIC	12.5 µg/mL
NNC(=O)c1ccncc1		XDR-83		resazurin	MIC	8 µg/mL
NNC(=O)c1ccncc1		CSU21			MIC	4 µg/mL
Nc1ccc(C(=O)Oc2ccccc2)c(O)c1		H37Rv (p-aminosalicylate-resistant)			MIC	75 µg/mL
Cc1ccc(/C=N/NC(=O)c2ccncc2)cc1		H37Rv	VERO		MIC	0.1 µg/mL
CC1(C)CCc2nc(-c3ccccc3)ccc2C1=O		H37Rv			MIC	>25 µg/mL
Nc1nc2[nH]c(=O)cnc2c(=O)[nH]1		H37Rv		BACTEC	MIC bound	>12.5 µg/mL
CO[C@H]1/C=C/O[C@@]2(C)Oc3c(C)c(O)c4c(O)c(c5c(c4c3C2=O)NC2(CCN(CC(C)C)CC2)N=5)=NC(=O)/C(C)=C\C=C\[C@H](C)[C@H](O)[C@@H](C)[C@@H](O)[C@@H](C)[C@H](OC(C)=O)[C@@H]1C		CSU27			MIC	≤0.125 µg/mL
c1cnc2c(c1)ccc1cccnc12		H37Rv		BACTEC	MIC	6.25 µg/mL
Cc1ccn2c(C(=O)NCc3ccc(N4CCC5(CC4)OCC(C)CO5)c(F)c3)c(C)nc2c1		H37Rv		resazurin	MIC90	<2 µM
CCCCc1c(C#N)c(=O)n2c(N)c(C(=O)OCC)cnc2c1SC		H37Rv		resazurin	MIC bound	>6.25 µg/mL
C[C@H]1COc2c(N3CCN(C)CC3)c(F)cc3c(=O)c(C(=O)O)cn1c23		45 strains (drug-susceptible)			MIC50	≤0.5 µg/mL
CC1=C(C(=O)NNC(=O)Cc2ccccc2)CC(C(=O)NNC(=O)Cc2ccccc2)=C(C)N1	6.25 µg/mL	H37Rv		resazurin	inhibition	2%
FC(F)(F)c1ccc(-n2cc(CSC3c4ccccc4-c4ccccc43)nn2)cc1		Specimen 192		broth dilution	MIC99	>236 µM

Again, the opening 6 rows:

smiles | tested at | strain | cells | read by | read-out | result
Nc1ccc(S(=O)(=O)Nc2cnc3c(Cl)cccc3n2)cc1 | 12.5 µg/mL | H37Rv |  | BACTEC | inhibition | 83%
CCC(C)c1cc(C)cc(OC(=O)c2ccc(N)cc2O)c1 |  | H37Rv (streptomycin-resistant) |  |  | MIC | 5 µg/mL
CC(C)(C)c1cc(C(C)(C)C)c2oc(-c3cccc(Br)c3)nc2c1 | 6.25 µg/mL | H37Rv |  | BACTEC | inhibition | <90%
Cc1ccc(NC(=S)NC(=O)/C=C/c2ccccc2)cc1Cl |  | H37Rv |  | BACTEC | MIC bound | ≤12.5 µg/mL
Cc1cn2c(C(=O)NCc3ccc(N4CCCN(c5ccc(S(F)(F)(F)(F)F)cc5)CC4)cc3)c(C)nc2s1 |  | H37Rv |  | resazurin | MIC90 | <2 µM
COc1ccc(-c2coc3cc(O)cc(O)c3c2=O)cc1 |  | H37Rv |  | BACTEC | MIC | ≥12.8 µg/mL

Conditions beyond the fields shown may differ between rows. Blank or dashed fields: not listed here. ECn: concentration that inhibits the pathogen or its effect by n%. MIC bound: limit read from a one-dose screen. Two numbers with a dash give a range or band. A number after MIC or MFC names an inhibition level or a share of isolates.